PubChem BioAssay AID504761, Drosophila RNAi Screening Center, 2011
The deposit covers about 22,000 reagents; shown is a random part of those with a known target gene and a result. In the full data, 116 (0.52%) are marked active. 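Calls depend on retest data that are not deposited; infection was ranked per plate without normalising between plates; the unit of the infection score is not given.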 A plus sign joins genes that one reagent is predicted to hit. Not all columns of the deposit are shown. The record does not give: the amount of reagent, the time to read-out.

- Assay: 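Genome-wide fly cell screen for genes dengue virus requires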 (primary screen)
- System: D.Mel-2 cells from Drosophila
- Reagents: long dsRNA against Drosophila genes
- Conditions: infection with dengue virus type 2; dose and infection time not stated
- Measurement: 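Per well on two replicate plates, imaging gave the percent of cells positive for viral envelope protein, ranked by infection, and a nuclear count of cells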
- Scale: infection score: higher = more virus-infected cells
- Rule for the call: 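Very low infection ranking in both replicate wells (chance probability at most 0.065), then a retest showing infection dropped 1.5-fold or more at p below 0.05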
- Calls: active = confirmed: knock-down lowers infection; inactive = not picked or not confirmed

infection score, replicate 1, by target gene and reagent
CG7071 + Muted: DRSC16189 10.1 inactive
CG15024: DRSC08478 3.81 inactive
CG4631: DRSC02766 11.4 inactive; DRSC22194 6.64 inactive
Mst98Cb (Male-specific RNA 98Cb): DRSC16750 9.8 inactive; DRSC22495 1.55 inactive; DRSC25707 4.58 inactive
UBL3 (Ubiquitin like 3): DRSC23292 1.28 inactive
CG12644 (retired record): DRSC17850 6.98 inactive
CG15152: DRSC02453 12.3 inactive
awd (abnormal wing discs): DRSC16906 3.39 inactive
att-ORFB + DPCoAC: DRSC15556 2.07 inactive
CG15443: DRSC00455 2.55 inactive
CecA1 (Cecropin A1): DRSC16603 2.31 inactive
CG33322: DRSC03204 19.6 inactive
Try29F (Trypsin 29F): DRSC03466 5.71 inactive; DRSC25721 4.69 inactive
CG16739: DRSC06621 2.18 inactive
hpRNA:CR18854 + IP3K1: DRSC02218 8.19 inactive
FRG1 (FSHD region gene 1): DRSC10648 14.5 inactive
fig (fos intronic gene): DRSC16270 1.68 inactive; DRSC24735 2.5 inactive
Socs16D (Suppressor of Cytokine Signaling at 16D): DRSC23165 2.88 inactive; DRSC26838 9.42 inactive
PIG-F (Phosphatidylinositol glycan anchor biosynthesis class F): DRSC11069 6.11 inactive; DRSC27027 7.61 inactive
Cpr92A (Cuticular protein 92A): DRSC16000 2.28 inactive; DRSC25340 10.8 inactive
GstD7 (Glutathione S transferase D7): DRSC16688 1.88 inactive; DRSC29907 15.5 inactive
CG1603: DRSC06602 20 inactive; DRSC27982 12.6 inactive
CG14036: DRSC02361 5.09 inactive
TwdlD (TweedleD): DRSC25038 4.48 inactive
Fak (Focal adhesion kinase): DRSC07426 2.1 inactive; DRSC26626 2 inactive
CG6650: DRSC10685 9.01 inactive
neo (neyo): DRSC16316 9.04 inactive; DRSC24164 6.48 inactive
lcs (la costa): DRSC20580 2.1 inactive; DRSC25611 11.9 inactive
barr (barren): DRSC03488 3.92 inactive
Fie (Fire exit): DRSC08158 7.06 inactive
CG4301: DRSC19886 4.94 inactive
ea (easter): DRSC16939 14 inactive; DRSC25595 2.94 inactive
CG14974: DRSC08433 3.01 inactive
Acbp6 (Acyl-CoA binding protein 6): DRSC10217 3.85 inactive
CG17193: DRSC15187 5.67 inactive
CG8079: DRSC07070 8.05 inactive; DRSC07071 7.9 inactive
aralar1: DRSC13987 7.33 inactive; DRSC16901 9.34 inactive; DRSC29693 7.09 inactive
Cyp309a1 (Cytochrome P450 309a1): DRSC00747 1.08 inactive
CG13760: DRSC18617 1.55 inactive
Acsl (Acyl-CoA synthetase long-chain): DRSC07252 4.42 inactive
KdelR (KDEL receptor): DRSC03353 5.53 inactive

In a second layout: 8 of the entries above.
| target gene | amplicon | infection score, replicate 1 | Call |
| --- | --- | --- | --- |
| CG12644 (retired record) | DRSC17850 | 6.98 | inactive |
| CG15152 | DRSC02453 | 12.3 | inactive |
| awd (abnormal wing discs) | DRSC16906 | 3.39 | inactive |
| att-ORFB + DPCoAC | DRSC15556 | 2.07 | inactive |
| CG15443 | DRSC00455 | 2.55 | inactive |
| CecA1 (Cecropin A1) | DRSC16603 | 2.31 | inactive |
| CG33322 | DRSC03204 | 19.6 | inactive |
| Try29F (Trypsin 29F) | DRSC03466 | 5.71 | inactive |
